The chains are these.
B1: Pigment epithelium-derived factor (protein, UniProt P97298 20-417, looked up)
Pigment epithelium-derived …: QNVPSSSEGSPVPDSTGEPVEEEDPFFKVPVNKLAAAVSNFGYDLYRLRSSASPTGNVLLSPLSVATALSALSLGAEHRTESVIHRALYYDLITNPDIHSTYKELLASVTAPEKNLKSASRIVFERKLRVKSSFVAPLEKSYGTRPRILTGNPRVDLQEINNWVQAQMKGKIARSTREMPSALSILLLGVAYFKGQWVTKFDSRKTTLQDFHLDEDRTVRVPMMSDPKAILRYGLDSDLNCKIAQLPLTGSMSIIFFLPLTVTQNLTMIEESLTSEFIHDIDRELKTIQAVLTVPKLKLSFEGELTKSLQDMKLQSLFESPDFSKITGKPVKLTQVEHRAAFEWNEEGAGSSPSPGLQPVRLTFPLDYHLNQPFLFVLRDTDTGALLFIGRILDPSST
B2: Complement component C8 gamma chain (protein, UniProt Q8VCG4 21-202, looked up)
Complement component C8 gamma …: QRTRKPIGSTSPISTIQAQVNFSAQKFAGTWLLVAVGSSCRFLQEQGHRAEATTLHAAPQGAAMAVSTFRKLDGICWQVRQLFENTGVPGRFLFQVSRARGPVHMVVAETDYQSFAILYLEQGRKLSVKLYVRSLPVNDSVLDVFERRVREANLTEDQILFFPKYGFCETADQLHILNEVPR
B3: Extracellular matrix protein 1 (protein, UniProt Q61508 20-559, looked up)
Extracellular matrix protein 1: ASEGAFKASDQREMTPERLFQHLHEVGYAAPPSPPQTRRLRVDHSVTSLHDPPLFEEQREVQPPSSPEDIPVYEEDWPTFLNPNVDKAGPAVPQEAIPLQKEQPPPQVHIEQKEIDPPAQPQEEIVQKEVKPHTLAGQLPPEPRTWNPARHCQQGRRGVWGHRLDGFPPGRPSPDNLKQICLPERQHVIYGPWNLPQTGYSHLSRQGETLNVLETGYSRCCRCRSDTNRLDCLKLVWEDAMTQFCEAEFSVKTRPHLCCRLRGEERFSCFQKEAPRPDYLLRPCPVHQNGMSSGPQLPFPPGLPTPDNVKNICLLRRFRAVPRNLPATDAIQRQLQALTRLETEFQRCCRQGHNHTCTWKAWEGTLDGYCERELAIKTHPHSCCHYPPSPARDECFAHLAPYPNYDRDILTLDLSRVTPNLMGQLCGSGRVLSKHKQIPGLIQNMTIRCCELPYPEQACCGEEEKLAFIENLCGPRRNSWKDPALCCDLSPEDKQINCFNTNYLRNVALVAGDTGNATGLGEQGPTRGTDANPAPGSKEE
B4: Fibrinogen beta chain (protein, UniProt Q8K0E8 35-481, looked up)
Fibrinogen beta chain: GHRPVDRRKEEPPSLRPAPPPISGGGYRARPAKATANQKKVERRPPDAGGCLHADTDMGVLCPTGCTLQQTLLNQERPIKSSIAELNNNIQSVSDTSSVTFQYLTLLKDMWKKKQAQVKENENVINEYSSILEDQRLYIDETVNDNIPLNLRVLRSILEDLRSKIQKLESDISAQMEYCRTPCTVSCNIPVVSGKECEEIIRKGGETSEMYLIQPDTSIKPYRVYCDMKTENGGWTVIQNRQDGSVDFGRKWDPYKKGFGNIATNEDAKKYCGLPGEYWLGNDKISQLTRMGPTELLIEMEDWKGDKVKAHYGGFTVQNEASKYQVSVNKYKGTAGNALMDGASQLVGENRTMTIHNGMFFSTYDRDNDGWVTTDPRKQCSKEDGGGWWYNRCHAANPNGRYYWGGLYSWDMSKHGTDDGVVWMNWKGSWYSMRRMSMKIRPFFPQQ
B5: Lysosomal alpha-mannosidase (protein, UniProt O09159 50-1013, looked up)
Lysosomal alpha-mannosidase: AGYKTCPPTKPGMLNVHLLPHTHDDVGWLKTVDQYYYGILSDVQHASVQYILDSVVSSLLEKPTRRFIYVEMAFFSRWWKQQTSATQDAVRNLVRQGRLEFVNGGWVMNDEAATHYGAIVDQMTLGLRFLQDTFGSDGLPRVAWHIDPFGHSREQASLFAQMGFDGFFLGRIDYQDKLNRKKKLRMEELWRASDSLEPPAADLFTGVLPNNYNPPKYLCWDVLCTDPPVVDNPRSPEFNAKTLVNYFLKLASSQKGFYRTNHTVMTMGSDFHYENANMWFKNMDKLIRLVNAQQVNGSLVHVLYSTPTCYLWELNKANLTWTVKEDDFFPYADGPHMFWTGYFSSRPALKRYERLSYNFLQVCNQLEALVGPEANVGPYGSGDSAPLQEAMAVLQHHDAVSGTARQNVVNDYARQLAAGWGPCEVLVSNALARLSHYKQNFSFCRELNISICPVSQTSERFQVTLYNPLGRKVDQMVRLPVYEGNFIVKDPHDKNISSNVVMVPSYYSETYQWELLFPASVPALGFSTYSVAKMSDLNHQAHNLLSRPRKHKSHHVLVIENKYMRATFDSGTGLLMKIENLEQNLSLPVSQGFFWYNASVGDEESSQASGAYIFRPNVGKPIPVSRWAQISLVKTALVQEVHQNFSAWCSQVIRLYKGQRHLELEWTVGPIPVRDDWGKEVISRFDTPMKTKGQFFTDSNGREILKRRDDYRPTWTLNQTEPVAGNYYPVNTRIYITDGQMQLTVLTDRSQGGSSLQDGSLELMVHRRLLVDDDRGVSEPLLETDTGDKVRGRHLVLLSSVSDAAARHRLLAEQEVLAPQVVLSLGGSSPYHSRATPKTQFSGLRQELPPQVHLLTLARWGPKMLLLRLEHQFALKEDSDRNLSSPVTLNVQNLFQTFTINYLQETTLAANQPLSRASRLKWMTNTGPTSYPEPSKLDPTSVTLKPMEIRTFLASVQWQEHRPA
B6: Keratin, type I cytoskeletal 28 (protein, UniProt A6BLY7 1-462, looked up)
Keratin, type I cytoskeletal …: MSLRFSGGSRHVGIQSGSLRPPSGGAGFAGSSVAGGSVAGSGFSWALGGTLGSAPGGSHATGALGNVSGVCFIGSEGGLLSGNEKVTMQNLNNRLASYLDNVKALEEANSELERKIKTWHEKYGPGSCRGLDRDYSKYHLTIEDLKSKIISSTAANANIILQIDNARLAADDFRLKYENELTLHQNVEADINGLRRVLDELTLCRTDQELQYESLSEEMTYLKKNHEEEMKVLQCAAGGNVNVEMNAAPGVDLTVLLNNMRAEYEALAEQNRRDAEAWFQEKSATLQQQISNDLGAATSARTELTELKRSLQTLEIELQSLSATKHSLECSLAETEGNYCSQLAQIQAQISALEEQLHQVRTETEGQKLEHEQLLDIKAHLEKEIETYCRLIDGDENSCSVSKGFESGTSGNSPKDVSKTTLVKTVVEEIDQRGKVLSSRIHSIEEKMSKMSNGKAEQRVPF
B7: Apolipoprotein C-I (protein, UniProt P34928 27-88, looked up)
Apolipoprotein C-I: APDLSGTLESIPDKLKEFGNTLEDKARAAIEHIKQKEILTKTRAWFSEAFGKVKEKLKTTFS
B8: Keratin, type I cytoskeletal 16 (protein, UniProt Q9Z2K1 1-469, looked up)
Keratin, type I cytoskeletal …: MATCSRQFTSSSSMKGSCGIGGGSSRMSSILAGGSCRAPSTCGGMSVTSSRFSSGGVCGIGGGYGGSFSSSSFGGGLGSGFGGRFDGFGGGFGAGLGGGLGGGIGDGLLVGSEKVTMQNLNDRLATYLDKVRALEEANRDLEVKIRDWYQRQRPTEIKDYSPYFKTIEDLKSKIIIATQENAQFTLQIDNARLAADDFRTKYENELFLRQSVEGDINGLRKVLDELTLSRADLEMQIENLREELAFLKKNHEEEMLALRGQTGGDVNVEMDAAPGVDLSRILNEMRDQYEQMAEKNRRDVEAWFLRKTEELNKEVASNSDLIQSNRSEVAELRRVFQGLEIELQSQLSMKASLENSLEETKGRYCMQLSQIQGLISSVEEQLAQLRCEMEQQSQEYNILLDVKTRLEQEIATYRRLLDGENIHSSSQHSSGQSYSSREVFSSSSRQPRSILKEQGSTSFSQSQSQSSRD
B9: Keratin, type I cytoskeletal 42 (protein, UniProt Q6IFX2 1-452, looked up)
Keratin, type I cytoskeletal …: MASTTSVRQFSTSGSVKGLCAPGMGFSRMSSVRVGGACRAPSLLGGGSCGNMSVTSSRFSAGLGGGYGGGYTCSLGGGFGSSFGVSDALLGGSEKETMQNLNDRLATYLDRVRALEEANADLEVKIREWYKKQGPGPARDYSPYFKTIEDLRNKILAATIDNASIVLQIDNARLAADDFRTKYETELNLRMSVEADINGLRRVLDELTLARADLEMQIESLKEELAYLRKNHEEEMNALRGQVGGDVNVEMDAAPGVDLSRILNEMRDQYEKMAEKNRKDAEEWFFTKTEELNREVATNTEALQSSRTEITELRRSVQNLEIELQSQLSMKASLENSLAETEARYGAQLAQLQGLISSVEQQLCELRCDMERQNHEYQVLLDVKTRLEQEIATYRRLLEGEDAHLATQYSSSLASQPSREGMVTSRQVRTIVEEVQDGKVVSSREQVHRSTH
B10: Carboxypeptidase B2 (protein, UniProt Q9JHH6 114-422, looked up)
Carboxypeptidase B2: ASASYYEQYHSLNEIYSWIEVITEQHPDMLQKIYIGSSFEKYPLYVLKVSGKEQRIKNAIWIDCGIHAREWISPAFCLWFIGYVTQFHGKENLYTRLLRHVDFYIMPVMNVDGYDYTWKKNRMWRKNRSAHKNNRCVGTDLNRNFASKHWCEKGASSSSCSETYCGLYPESEPEVKAVADFLRRNIDHIKAYISMHSYSQQILFPYSYNRSKSKDHEELSLVASEAVRAIESINKNTRYTHGSGSESLYLAPGGSDDWIYDLGIKYSFTIELRDTGRYGFLLPERYIKPTCAEALAAISKIVWHVIRNT
B11: Alpha-2-HS-glycoprotein (protein, UniProt P29699 19-345, looked up)
Alpha-2-HS-glycoprotein: APQGTGLGFRELACDDPEAEQVALLAVDYLNNHLLQGFKQVLNQIDKVKVWSRRPFGVVYEMEVDTLETTCHALDPTPLANCSVRQLTEHAVEGDCDFHILKQDGQFRVMHTQCHSTPDSAEDVRKLCPRCPLLTPFNDTNVVHTVNTALAAFNTQNNGTYFKLVEISRAQNVPLPVSTLVEFVIAATDCTAKEVTDPAKCNLLAEKQHGFCKANLMHNLGGEEVSVACKLFQTQPQPANANAVGPVPTANAALPADPPASVVVGPVVVPRGLSDHRTYHDLRHAFSPVASVESASGETLHSPKVGQPGAAGPVSPMCPGRIRHFKI

This note sets out measurements from patent US20240122867A1, “CORONAL PROTEIN-COATED NANOPARTICLES AND USES THEREOF” (UNIVERSITY OF CENTRAL FLORIDA RESEARCH FOUNDATION, INC., priority 2021, published 2024).

In one data set the test system is coronal proteins on NPs. Further details: species or system mouse. Particulars: HBPE-NPs incubated 1 h with IAV day 5 (V5) mouse sera, 20:1 NP:sera, centrifuged and washed.
Consider B1, for which the “V5 Sera_Nanoparticles Quantitative Value (Normalized Total Spectra)” value was found to be 1.0879.

B2: the “V5 Sera_Nanoparticles Quantitative Value (Normalized Total Spectra)” value was 1.0879.

As to B3, the “V5 Sera_Nanoparticles Quantitative Value (Normalized Total Spectra)” value was determined as 1.0879.

Take B4: the “V5 Sera_Nanoparticles Quantitative Value (Normalized Total Spectra)” value is 1.0879.

Take B5: the “V5 Sera_Nanoparticles Quantitative Value (Normalized Total Spectra)” value was 1.0879.

As for B6, the “V5 Sera_Nanoparticles Quantitative Value (Normalized Total Spectra)” value turned out to be 1.0879.

In the case of B7, the “V5 Sera_Nanoparticles Quantitative Value (Normalized Total Spectra)” value stood at 1.0879.

B8: the “V5 Sera_Nanoparticles Quantitative Value (Normalized Total Spectra)” value is listed as 1.0879.

B9: the “V5 Sera_Nanoparticles Quantitative Value (Normalized Total Spectra)” value was found to be 1.0879.

As for B10, the “V5 Sera_Nanoparticles Quantitative Value (Normalized Total Spectra)” value was determined as 1.0879.

As to B11, the “V5 Sera_Nanoparticles Quantitative Value (Normalized Total Spectra)” value was found to be 46.781.

Staying with this data set, now noted: IAV day 5 (V5) mouse sera alone, no NPs (sera-only control).
Take B1: the “V5 Sera Alone (Control) Quantitative Value (Normalized Total Spectra)” value (“V5 Sera Alone … (Normalized Total Spectra)” below) is listed as 6.4766.

Regarding B2, the “V5 Sera Alone … (Normalized Total Spectra)” value was 2.7757.

With B3, the “V5 Sera Alone … (Normalized Total Spectra)” value is recorded as 3.7009.

For B4, the “V5 Sera Alone … (Normalized Total Spectra)” value turned out to be 2.7757.

Turning to B5, the “V5 Sera Alone … (Normalized Total Spectra)” value was determined as 0.

In the case of B6, the “V5 Sera Alone … (Normalized Total Spectra)” value is reported as 5.5514.

Regarding B7, the “V5 Sera Alone … (Normalized Total Spectra)” value was found to be 10.178.

On to B8, for which the “V5 Sera Alone … (Normalized Total Spectra)” value was determined as 1.8505.

Regarding B9, the “V5 Sera Alone … (Normalized Total Spectra)” value was determined as 0.9252.

As to B10, the “V5 Sera Alone … (Normalized Total Spectra)” value worked out at 0.9252.

Consider B11, for which the “V5 Sera Alone … (Normalized Total Spectra)” value amounted to 32.383.
